# Experimental data from PubChem BioAssay AID652162 (Broad Institute, 2013).
# The entries are a selection whose mix differs from that of the whole data set. Calls of active or inactive are those of the source. Cut-off read from the data, not from the text of the source: active = inhibition above about 10%; inactive = the rest.
# Biological target: Toxin B (Clostridioides difficile) (UniProt P18177)
# Test: TcdB glycohydrolase inhibitors, primary screen, biochemical, single point, plate reader (AID 652162)
# Details: TcdB glycohydrolase enzymatic assay, at 9.99 µM, hits give high values
row,SMILES,inhibition
1,CCCCOc1ccc(C(=O)NCC2(N3CCOCC3)CCCCC2)cc1,inactive: -0.126%
2,CCCCn1nnnc1C(c1cc2ccccc2o1)N1CCC(n2c(=O)[nH]c3ccccc32)CC1 (stereo not drawn),inactive: -0.71%
3,O=P1(N(CCCl)CCCl)SCCCS1,inactive: 1.22%
4,O=C(NCC1(N2CCCCC2)CCCCC1)c1ccc(F)cc1,inactive: 1.36%
5,O=C1CCN(Cc2ccccc2)CC1,inactive: 1.52%
6,CC(C)(C)n1nnnc1C(c1ccccc1)N1CCC(n2c(=O)[nH]c3ccccc32)CC1 (stereo not drawn),inactive: -1.3%
7,CCOc1ccc(C)cc1CN(CCCl)CCCl,inactive: 0.923%
8,COc1cc(C(=O)NCC2(N3CCCCC3)CCCCC2)ccc1OC(F)F,inactive: -1.24%
9,CC(C)c1ccc(C(=O)NCC2(N3CCOCC3)CCCCC2)cc1,inactive: 5.43%
10,COc1ccc(NC2CCN(C(=O)OC(C)(C)C)CC2)cc1,inactive: -21.5%
11,CN1CCN(CCOC(=O)C(O)(c2ccccc2)c2ccccc2)CC1,inactive: 1.11%
12,CCCCn1nnnc1C(c1cccc2ccccc12)N1CCC(n2c(=O)[nH]c3ccccc32)CC1 (stereo not drawn),inactive: 0.297%
13,O=C(NCC1(N2CCCCC2)CCCCC1)c1cccc(C(F)(F)F)c1,inactive: 0.333%
14,O=c1[nH]c2ccccc2n1C1CCN(C(c2ccccc2OC(F)(F)F)c2nnnn2C2CCCC2)CC1 (stereo not drawn),inactive: 1.2%
15,CCN1CCC(Nc2ccc(Cl)cc2)CC1,inactive: 1.23%
16,O=C(NCC1(N2CCCCC2)CCCCC1)c1cccc([N+](=O)[O-])c1,inactive: 1.18%
17,CSc1ccc(C(=O)NCC2(N3CCOCC3)CCCCC2)cc1,inactive: 2.21%
18,O=C(NCC1(N2CCCCC2)CCCCC1)c1ccc(OC(F)F)cc1,inactive: 2.15%
19,CC(C)(C)n1nnnc1C(c1ccccc1OC(F)(F)F)N1CCC(n2c(=O)[nH]c3ccccc32)CC1 (stereo not drawn),inactive: 1.64%
20,COc1ccc(C(c2nnnn2C2CCCC2)N2CCC(n3c(=O)[nH]c4ccccc43)CC2)cc1 (stereo not drawn),inactive: 1.32%
21,CCCOc1ccc(C(=O)NCC2(N(C)C)CCCCC2)cc1OC,inactive: 0.283%
22,Cc1ccc(C(=O)NCC2(N(C)C)CCCCC2)o1,inactive: -2.54%
23,CN1CCC(Nc2cccc(F)c2)CC1,inactive: 3.17%
24,O=C(NCC1(N2CCCCC2)CCCCC1)c1cncc(Br)c1,inactive: 0.852%
25,CCC(c1nnnn1C(C)(C)C)N1CCC(n2c(=O)[nH]c3ccccc32)CC1 (stereo not drawn),inactive: 0.928%

row,SMILES,inhibition
1,O=C(NCC1(N2CCOCC2)CCCCC1)c1cc(F)c(F)cc1Cl,inactive: -1.47%
2,COc1cc(OC)c(C(=O)NCC2(N(C)C)CCCCC2)cc1OC,inactive: 0.705%
3,CCCCn1nnnc1C(c1ccnc2ccccc12)N1CCC(n2c(=O)[nH]c3ccccc32)CC1 (stereo not drawn),inactive: -0.185%
4,CC(C)c1ccc(NC2CCN(C(=O)OC(C)(C)C)CC2)cc1,inactive: 1.2%
5,CN(C)c1cccc(C(=O)NCC2(N3CCCCC3)CCCCC2)c1,inactive: -0.097%
6,COc1ccc(CN(CCCl)CCCl)cc1Cl,inactive: 1.4%
7,O=c1[nH]c2ccccc2n1C1CCN(C(c2cccs2)c2nnnn2C2CCCC2)CC1 (stereo not drawn),inactive: 0.091%
8,CCCCn1nnnc1C(c1cccc(OC)c1OC)N1CCC(n2c(=O)[nH]c3ccccc32)CC1 (stereo not drawn),inactive: 1.51%
9,CCOC(=O)N1CCC(Nc2ccc(C)cc2)CC1,inactive: 0.824%
10,COc1cccc(C(c2nnnn2C(C)(C)C)N2CCC(n3c(=O)[nH]c4ccccc43)CC2)c1OC (stereo not drawn),inactive: 1.34%
11,O=c1[nH]c2ccccc2n1C1CCN(C(c2cccs2)c2nnnn2C2CCCCC2)CC1 (stereo not drawn),inactive: 1.62%
12,O=c1[nH]c2ccccc2n1C1CCN(C(c2ccnc3ccccc23)c2nnnn2C2CCCC2)CC1 (stereo not drawn),inactive: 0.241%
13,COc1ccc(C(=O)NCC2(N3CCOCC3)CCCCC2)cc1OC,inactive: 3.38%
14,COc1cc(C(=O)NCC2(N3CCOCC3)CCCCC2)cc(OC)c1C,inactive: -0.077%
15,CCCCn1nnnc1C(c1ccccc1)N1CCC(n2c(=O)[nH]c3ccccc32)CC1 (stereo not drawn),inactive: 0.606%
16,O=C(NCC1(N2CCOCC2)CCCCC1)c1cc(Br)ccc1Cl,inactive: 0.661%
17,CC(C)(C)n1nnnc1C(c1cccc2ccccc12)N1CCC(n2c(=O)[nH]c3ccccc32)CC1 (stereo not drawn),inactive: 0.988%
18,CN(C)C1(CNC(=O)c2cccc(C#N)c2)CCCCC1,inactive: 0.492%
19,Cc1cc(N(CCCl)CCCl)ccc1C=O,inactive: 1.63%
20,O=c1[nH]c2ccccc2n1C1CCN(C(c2ccccc2)c2nnnn2C2CCCC2)CC1 (stereo not drawn),inactive: 0.995%
21,CCCN1CCC(Nc2cc(OC)cc(OC)c2)CC1,inactive: -8.05%
22,C/C(N)=N\P(=O)(Oc1ccccc1)Oc1ccccc1,inactive: 1.4%
23,N#Cc1ccc(C(=O)NCC2(N3CCCCC3)CCCCC2)cc1,inactive: -0.159%
24,CC(C)(C)OC(=O)N1CCC(N(C(=O)c2ccccc2)c2ccc(Cl)cc2)CC1,inactive: 0.611%
25,CN(C)c1ccc(C(=O)NCC2(N3CCCCC3)CCCCC2)cc1,inactive: 0.942%

row,SMILES,inhibition
1,Cn1c(=O)[nH]cc(N(CCCl)CCCl)c1=O,inactive: -2.82%
2,O=C(NCC1(N2CCCCC2)CCCCC1)c1ccco1,inactive: 1.13%
3,COc1ccc(C(c2nnnn2C2CCCCC2)N2CCC(n3c(=O)[nH]c4ccccc43)CC2)cc1 (stereo not drawn),inactive: 0.545%
4,CC(C)(C)n1nnnc1C(c1ccnc2ccccc12)N1CCC(n2c(=O)[nH]c3ccccc32)CC1 (stereo not drawn),inactive: 0.814%
5,Cc1ccccc1NC1(C#N)CCN(Cc2ccccc2)CC1,inactive: 1.04%
6,Fc1ccccc1NC1CCN(Cc2ccccc2)CC1,inactive: 0.672%
7,Cc1ccc(C(=O)NCC2(N3CCCCC3)CCCCC2)o1,inactive: 0.509%
8,Cc1ccc(NC2(C#N)CCN(Cc3ccccc3)CC2)cc1,inactive: -3.68%
9,CCC(c1nnnn1C1CCCCC1)N1CCC(n2c(=O)[nH]c3ccccc32)CC1 (stereo not drawn),inactive: -5.48%
10,COc1cccc(C(c2nnnn2C2CCCCC2)N2CCC(n3c(=O)[nH]c4ccccc43)CC2)c1OC (stereo not drawn),inactive: 0.586%
11,CC(=O)N(c1ccccc1)C1CCNCC1,inactive: 0.043%
12,COc1cc(OC)cc(C(=O)NCC2(N3CCCCC3)CCCCC2)c1,inactive: 0.386%
13,O=c1[nH]c2ccccc2n1C1CCN(C(c2ccnc3ccccc23)c2nnnn2C2CCCCC2)CC1 (stereo not drawn),inactive: -6.51%
14,CN1CCC(Nc2ccc(Cl)cc2)CC1,inactive: 0.216%
15,COc1cccc(C(=O)N(c2cc(C)cc(C)c2)C2CCN(C(=O)OC(C)(C)C)CC2)c1,inactive: 0.107%
16,COc1cc(OC)cc(C(=O)NCC2(N3CCOCC3)CCCCC2)c1,inactive: 0.917%
17,COc1cccc(C(c2nnnn2C2CCCC2)N2CCC(n3c(=O)[nH]c4ccccc43)CC2)c1OC (stereo not drawn),inactive: 0.644%
18,NN(c1ccccc1)C1CCN(CCc2ccccc2)CC1,inactive: 0.546%
19,O=C(O)C1(Nc2ccccc2)CCN(Cc2ccccc2)CC1,inactive: -1.64%
20,CC(C)(C)OC(=O)N1CCC(Nc2ccccc2)CC1,inactive: 2.66%
21,O=c1[nH]c2ccccc2n1C1CCN(C(c2cc3ccccc3o2)c2nnnn2C2CCCC2)CC1 (stereo not drawn),inactive: -0.117%
22,CCCOc1ccc(C(=O)NCC2(N(C)C)CCCCC2)cc1,inactive: 0.538%
23,CN1CCC(Nc2ccc(F)c(Cl)c2)CC1,inactive: 1.96%
